Measured values from several laboratories, pooled; numbers as filed in NIAID ChemDB.

Common to all: cytotoxicity tests; cells: Huh7; read-out: CC50

Conditions beyond the fields shown may differ between rows. Two numbers with a dash give a range or band. CCn: concentration that lowers growth or viability of the cells by n%.

compound	result
CCCC(NC(=O)[C@@H]1C2CCCC2CN1C(=O)[C@@H](NC(=O)[C@@H](NC(=O)c1cnccn1)C1CCCCC1)C(C)(C)C)C(=O)C(=O)NC1CC1	86.5 µM
CC(=O)Nc1ccc(-c2ccc3nc(N)nc(N4CCCCC4)c3c2)cc1	10–20 µM
COc1cc(Cc2cnc(/N=C3\C(=O)N(CN4CCN(c5ccccn5)CC4)c4ccc(Br)cc43)nc2N)cc(OC)c1OC	>50 µg/mL
CC(C)(N)C(=O)Nc1ccc(-c2ccc3nc(N)nc(NCCS(C)(=O)=O)c3n2)cc1	<10 µM
COc1cc(Cc2cnc(/N=C3\C(=O)N(CN4CCN(Cc5ccccc5)CC4)c4ccc(F)cc43)nc2N)cc(OC)c1OC	<50 µg/mL
CCCc1nc(N)nc2ccc(-c3ccc(NC(C)=O)cc3)nc12	>20 µM
CCn1cc(C(=O)O)c(=O)c2cc(F)c(N3CCN(CN4C(=O)/C(=N\c5ncc(Cc6cc(OC)c(OC)c(OC)c6)c(N)n5)c5cc(Br)ccc54)C(C)C3)c(F)c21	>50 µg/mL
CCOc1nc(N)nc2ccc(-c3cccc(NS(C)(=O)=O)c3)nc12	>20 µM
COc1ccc(Nc2s[nH]c(=O)c2C#N)cc1	>50 µM
Nc1nc(N2CCOCC2)c2cc(-c3ccc(F)cc3)ccc2n1	<10 µM
Nc1nc(CCC2OCCCO2)c2nc(-c3ccc(F)cc3)ccc2n1	>20 µM
CCOc1nc(N)nc2ncc(-c3ccc(OC)c(F)c3)nc12	>20 µM
C[C@H](NP(=O)(OC[C@H]1O[C@@H](n2cnc3c(NCc4ccccc4)nc(N)nc32)[C@](C)(O)[C@@H]1O)Oc1cccc2ccccc12)C(=O)OCC(C)(C)C	42 µM
COC1=CC(=O)C[C@@H](C)[C@]12Oc1c(Cl)c(OC)cc(OC)c1C2=O	218 µM
Nc1nc(Cl)nc2c1ncn2[C@@H]1O[C@H](CO)[C@@H](F)[C@@H]1F	>10 µM
C=CCCc1nc(N)nc2ccc(-c3ccc(F)cc3)nc12	>20 µM
CCC[C@H](NC(=O)[C@@H]1C2CCCC2CN1C(=O)[C@@H](NC(=O)[C@@H](NC(=O)c1cnccn1)C(C)CC)C(C)(C)C)C(=O)C(=O)NC1CC1	>100 µM
CNc1nc(=O)n2c3c1nnn3C[C@H]1OC2[C@H](O)[C@@H]1O	6.7 µM
CCCCCCCC(=O)CCCCCC/C=C/[C@H](C(=O)N[C@@H](Cc1ccc(OCCC(C)C)cc1)C(=O)O)[C@@](O)(CC(=O)O)C(=O)O	>1 µM
COc1cc(Cc2cnc(/N=C3\C(=O)N(CN4CCCC4)c4ccc(F)cc43)nc2N)cc(OC)c1OC	<50 µg/mL
COc1ccnc2[nH]cc(C(=O)C(=O)N3CCN(C(=O)c4ccccc4)C[C@H]3C)c12	>225 µM
CCC[C@H](NC(=O)[C@@H]1C2CCCC2CN1C(=O)[C@@H](NC(=O)[C@@H](NC(=O)c1cnccn1)C1CCCCC1)C(C)(C)C)C(=O)C(=O)N[C@@H](C)C(C)C	44.3 µM
CCC[C@H](NC(=O)[C@@H]1[C@H]2CCC[C@H]2CN1C(=O)[C@@H](NC(=O)[C@@H](NC(=O)c1cnccn1)C1CCCCC1)C(C)(C)C)C(=O)C(=O)NC1CC1	>30 µM
CCOc1nc(N)nc2ccc(-c3ccc(NC(=O)[C@H](C)N)cc3)nc12	>20 µM
COc1cc(Cc2cnc(/N=C3\C(=O)N(CN4CCN(c5cc6c(cc5F)c(=O)c(C(=O)O)cn6C5CC5)CC4)c4ccc(F)cc43)nc2N)cc(OC)c1OC	>50 µg/mL
CC(C)(C)C(=O)Nc1ccc(-c2cnc3nc(N)nc(N4CCOCC4)c3n2)cc1	10–20 µM
CCCc1nc(N)nc2ccc(-c3ccc(F)cc3)nc12	>20 µM
C#CCOc1ccc(C[C@H](NC(=O)[C@@H](/C=C/CCCCCCC(=O)CCCCCCC)[C@@](O)(CC(=O)O)C(=O)O)C(=O)O)cc1	>5 µM
CCCN1N=C(N)c2cn(C3(C)O[C@H](CO)[C@@H](O)[C@H]3O)c3ncnc1c23	>300 µM
CCc1nc(N)nc2ccc(-c3ccc(F)cc3)nc12	<10 µM
CC1CCC(C(=O)N(c2cc(-c3ccccc3)sc2C(=O)O)C(C)C)C(O)C1	131 µM
C=C1C(=O)O[C@@H]2[C@H]1CC[C@H](COC(=O)C(C)CC)[C@]1(O)CCC(=O)[C@@]21C	>2 µM
C[C@@]1(O)[C@H](O)[C@@H](CO)O[C@H]1n1ccc(=O)[nH]c1=O	>1000 µM
CCNc1ncnc2ccc(-c3ccc(F)cc3)cc12	>20 µM
N#Cc1c(Nc2ccc(Br)cn2)s[nH]c1=O	>50 µM
CCn1cc(C(=O)O)c(=O)c2cc(F)c(N3CCN(CN4C(=O)/C(=N\c5ncc(Cc6cc(OC)c(OC)c(OC)c6)c(N)n5)c5cc(F)ccc54)CC3)cc21	>50 µg/mL
CCCCCCCC(=O)CCCCCC/C=C/[C@H](C(=O)N[C@@H](Cc1ccc(Oc2ccccc2F)cc1)C(=O)O)[C@@](O)(CC(=O)O)C(=O)O	>1 µM
c1ccsc1	>100 µM
Nc1nc(=O)n2c3c1nnn3C[C@H]1OC2[C@H](O)[C@@H]1O	11 µM
Nc1ncnc2c1c(-c1ccc(-c3ccc4ccc5cccnc5c4n3)cc1)cn2[C@H]1C[C@H](O)[C@@H](CO)O1	1 µM
Fc1ccc(-c2ccc3ncnc(NC4CC4)c3c2)cc1	>20 µM
N#Cc1c(Nc2cc(C(F)(F)F)cc(C(F)(F)F)c2)s[nH]c1=O	>50 µM
N#Cc1cccc(-c2cnc3nc(N)nc(N4CCOCC4)c3n2)c1	>20 µM
CCCCCCCC(=O)CCCCCC/C=C/[C@H](C(=O)N[C@@H](Cc1ccc(OCC#CCC#CC(C)(C)C)cc1)C(=O)O)[C@@](O)(CC(=O)O)C(=O)O	>1 µM
CCn1cc(C(=O)O)c(=O)c2cc(F)c(N3CCN(CN4C(=O)/C(=N\c5ncc(Cc6cc(OC)c(OC)c(OC)c6)c(N)n5)c5cc(F)ccc54)C(C)C3)c(F)c21	<50 µg/mL
CC(C)(CN1CCOCC1)NC(=O)c1ccc(-c2ccc3nc(N)nc(O[C@H]4CCOC4)c3n2)cc1	10–20 µM
CC(=O)Nc1ccc(-c2ccc3nc(N)nc(N4CCOCC4)c3c2)cc1	10–20 µM
COC(=O)Nc1ccc(-c2ccc3nc(N)nc(N4CCS(=O)(=O)CC4)c3n2)cc1	>20 µM
Nc1ccn([C@@H]2O[C@H](CO)[C@@H](O)[C@H]2F)c(=O)n1	>100 µM
C=C1C(=O)O[C@@H]2[C@H]1CC[C@H](COC(=O)CCC)[C@]1(O)CCC(=O)[C@@]21C	>2 µM
CCCCCCC/C(CCCCCC/C=C/[C@H](C(=O)N[C@@H](Cc1ccc(OCC=C(C)C)cc1)C(=O)O)[C@@](O)(CC(=O)O)C(=O)O)=N\OCCN	>22 µM
CN(C)c1nc(=O)n2c3c1nnn3C[C@H]1OC2[C@H](O)[C@@H]1O	>100 µM
O=C(NCc1ccc(N2CCNC2=O)cc1)Nc1nc2c(s1)-c1c(cnn1-c1ccccc1C(F)(F)F)C2	1 µM
Nc1ccc(Oc2ccc(/C=C(\NC(=O)CCC3CCCC3)C(=O)O)cc2)c(C(F)(F)F)c1	>100 µM
Cc1nc(N)nc2ccc(-c3ccc(F)cc3)nc12	<10 µM
CC1CCC(C(=O)N(c2cc(-c3ccccc3)sc2C(=O)O)C(C)C)CC1	77 µM
CC(C)(N)C(=O)Nc1ccc(-c2ccc3nc(N)nc(O[C@@H]4CCOC4)c3n2)cc1F	>20 µM
COc1cc(Cc2cnc(/N=C3\C(=O)N(CN4CCN(c5cccc(C(F)(F)F)c5)CC4)c4ccc(Br)cc43)nc2N)cc(OC)c1OC	>50 µg/mL
CC1CCC(C(=O)N(c2cc(C#CC(C)(C)C)sc2C(=O)O)N(C)C2CCN(C)CC2)CC1	>44 µM
CCOc1nc(N)nc2ccc(-c3ccc(NC(=O)C4CC4)cc3)nc12	>20 µM
CCCC(NC(=O)[C@@H]1C[C@@H](OC(=O)N2CCc3ccccc3C2)CN1C(=O)[C@H](NC(=O)[C@H](NC(=O)c1cnccn1)C(C)C)C(C)C)C(=O)C(=O)N[C@@H](C)c1ccccc1	16 µM
CCCCN(CCCC)CN1C(=O)/C(=N\c2ncc(Cc3cc(OC)c(OC)c(OC)c3)c(N)n2)c2cc(Br)ccc21	<50 µg/mL
N#Cc1c(Nc2ccc(Cc3ccccc3)cc2)s[nH]c1=O	>50 µM
C=CC1C[C@]1(NC(=O)C1C[C@@H](Oc2cc(-c3ccccc3)nc3ccccc23)CN1C(=O)[C@@H](NC(=O)[C@@H](NC(=O)[C@@H](CCC(=O)O)NC(=O)[C@H](CC(=O)O)NC(C)=O)C1CCCCC1)C(C)(C)C)C(=O)O	>400 µM
COc1cc(Cc2cnc(/N=C3\C(=O)N(CN4CCN(c5cccc(Cl)c5)CC4)c4ccc(Br)cc43)nc2N)cc(OC)c1OC	>50 µg/mL
CCC[C@H](NC(=O)[C@@H]1[C@H]2CCC[C@H]2CN1C(=O)[C@@H](NC(=O)[C@@H](NC(=O)c1cnccn1)C1CCCCC1)C(C)(C)C)C(=O)C(=O)N[C@@H](C)Cc1ccc(C)cc1	63 µM
COc1cc(Cc2cnc(/N=C3\C(=O)N(CN4CCCC4)c4ccc(Br)cc43)nc2N)cc(OC)c1OC	>50 µg/mL
O=c1[nH]c(=O)n2c3c1nnn3CC1OC2[C@H](O)[C@@H]1O	24.4 µM
Nc1ccn([C@@H]2C[C@H](CO)[C@@H](O)[C@]2(O)CO)c(=O)n1	20 µg/mL
COc1cc(Cc2cnc(/N=C3\C(=O)N(CN4CCN(C)CC4)c4ccc(Br)cc43)nc2N)cc(OC)c1OC	>50 µg/mL
COC(=O)Nc1ccc(-c2ccc3nc(N)nc(NCCS(C)(=O)=O)c3n2)cc1	10–20 µM
CC1(n2cc3c4c(ncnc42)N(CCO)N=C3N)O[C@H](CO)[C@@H](O)[C@H]1O	>300 µM
COc1cc(Cc2cnc(/N=C3\C(=O)N(CN4CCOCC4)c4ccc(Br)cc43)nc2N)cc(OC)c1OC	>50 µg/mL

For reference, 8 entries again:

compound | result
CC1(n2cc3c4c(ncnc42)N(CCO)N=C3N)O[C@H](CO)[C@@H](O)[C@H]1O | >300 µM
CCCN1N=C(N)c2cn(C3(C)O[C@H](CO)[C@@H](O)[C@H]3O)c3ncnc1c23 | >300 µM
CC(C)(N)C(=O)Nc1ccc(-c2ccc3nc(N)nc(NCCS(C)(=O)=O)c3n2)cc1 | <10 µM
C=C1C(=O)O[C@@H]2[C@H]1CC[C@H](COC(=O)C(C)CC)[C@]1(O)CCC(=O)[C@@]21C | >2 µM
CCOc1nc(N)nc2ccc(-c3ccc(NC(=O)C4CC4)cc3)nc12 | >20 µM
COc1cc(Cc2cnc(/N=C3\C(=O)N(CN4CCN(c5cccc(Cl)c5)CC4)c4ccc(Br)cc43)nc2N)cc(OC)c1OC | >50 µg/mL
C=CCCc1nc(N)nc2ccc(-c3ccc(F)cc3)nc12 | >20 µM
COc1cc(Cc2cnc(/N=C3\C(=O)N(CN4CCN(c5cc6c(cc5F)c(=O)c(C(=O)O)cn6C5CC5)CC4)c4ccc(F)cc43)nc2N)cc(OC)c1OC | >50 µg/mL